Anti-infective test results gathered from many reports (values: NIAID ChemDB through PubChem).

All rows: cytotoxicity tests; cells: MT-4; read by: MTT; endpoint: CC50

CCn is the concentration with n% toxicity to the cells. Rows are shuffled and stem from different studies.

compound	result
CCc1nc(SC)n(COCc2ccccc2)c1Cc1ccccc1	34 µM
Cc1cn([C@H]2C[C@H](N=[N+]=[N-])[C@@H](CO)O2)c(=O)[nH]c1=O	63 µg/mL
COC(=O)[C@H](CCSC)NC(=O)[C@H](C)NC(=O)COc1ccc2ccccc2c1	48 µg/mL
NC(=NCCNc1ccc2[nH]ccc2c1)N[N+](=O)[O-]	≥400 µM
COC(=O)[C@H](CCSC)NC(=O)CNC(=O)COc1ccc2ccccc2c1	>100 µg/mL
CCCCCCCCCCCC(=O)O[C@@]12C[C@@H](C)[C@]34C=C(C)[C@@H]5OC(=O)O[C@@]53[C@H](O)C(COC(=O)OC)=C[C@H](C4=O)[C@@H]1C2(C)C	8.9 µg/mL
Cc1cn([C@@H]2O[C@H](CO[Si](C)(C)C(C)(C)C)C3(OS(=O)(=O)C=C3N)[C@H]2O[Si](C)(C)C(C)(C)C)c(=O)n(C)c1=O	>66.2 µM
CC(C)c1c(CO)cn(Cc2ccccn2)c1Sc1cc(Cl)cc(Cl)c1	120 µM
COc1cc(NC(C)CCCN)c2ncccc2c1	17.9 µM
CCO/N=C(/c1ccco1)c1c(CC)nc2sccn12	160 µM
O=c1[nH]c(=O)n([C@@H]2O[C@H](CO)[C@@H](O)[C@H]2O)c2c1Nc1ccccc1S2	53 µg/mL
Nc1ccn([C@H]2CC[C@@H](CO)O2)c(=O)n1	47.3 µM
COC(=O)[C@H](CCSC)NC(=O)[C@H](CCSC)NC(=O)COc1ccc2ccccc2c1	>100 µg/mL
CCOP(=O)(OC[C@H]1O[C@@H](n2cc(C)c(=O)[nH]c2=O)C[C@@H]1N=[N+]=[N-])C(=O)NCCc1ccccc1	69.1 µM
Oc1ccccc1CN(CCN1CCCCC1)CC1CCCN(C2CCCC2)C1	36 µM
Cc1cn([C@H]2C[C@H](N=[N+]=[N-])[C@@H](CO)O2)c(=O)[nH]c1=O	>93.55 µM
NNC(=O)[C@H](CO)NC(=O)COc1ccc2ccccc2c1	>100 µg/mL
O=C(CN1CCN(c2ccc([N+](=O)[O-])cc2)CC1)OC[C@@H]1CC[C@H](n2cnc3c(=O)[nH]cnc32)O1	>1000 µM
COC(=O)[C@H](CCSC)NC(=O)COc1ccc2ccccc2c1	>100 µg/mL
COC(=O)N[C@H](C(=O)N[C@H](Cc1ccc(-c2ccccn2)cc1)C[C@H](O)[C@H](Cc1ccccc1)NC(=O)[C@@H](N1CCN(Cc2cccc(C(C)(C)O)n2)C1=O)C(C)(C)C)C(C)(C)C	0.022 µM
COC(=O)CNC(=O)[C@H](CO)NC(=O)COc1ccc2ccccc2c1	>100 µg/mL
CCOC(=O)c1cn(Cc2ccncc2)c(Sc2cc(C)cc(C)c2)c1C(C)C	≥200 µM
Cc1cn([C@H]2C[C@H](N=[N+]=[N-])[C@@H](CO)O2)c(=O)[nH]c1=O	>93.55 µM
COC(=O)[C@H](CO)NC(=O)CNC(=O)COc1ccc2ccccc2c1	58 µg/mL
C=C(C)[C@@H]1CC[C@]2(CCO)CC[C@]3(C)C(CCC4[C@@]5(C)CC/C(=C\O)C(C)(C)C5CC[C@]43C)C12	>200 µM
O=c1[nH]c(=O)n(COCc2ccccc2)c2c1Nc1ccccc1S2	23 µg/mL
CCc1c(Sc2cccc3ccccc23)nc(SCC(=O)c2ccc(F)cc2)[nH]c1=O	26.04 µM
CCCCCCCCCCCC(=O)O[C@@]12C[C@@H](C)[C@]34C=C(C)[C@H](O)[C@@]3(O)[C@H](O)C(COCc3ccccc3)=C[C@H](C4=O)[C@@H]1C2(C)C	9.5 µg/mL
Cc1cc(C)c(Oc2cc(Nc3ccc(C#N)cc3)ncc2C(=O)NCc2cn(CC(=O)N3CCOCC3)nn2)c(C)c1	180.9 µM
O=c1[nH]cnc2c1ncn2[C@H]1CC[C@@H](CO)O1	529 µM
COP(=O)(OC[C@H]1O[C@@H](n2cc(C)c(=O)[nH]c2=O)C[C@@H]1N=[N+]=[N-])C(N)=O	103 µM
COc1ccccc1S(=O)(=O)/N=c1\sc(C(C)(C)C)c(C)n1C	>25 µM
COc1cc(CSc2nc(Cc3c(Cl)cccc3Cl)c(C)c(=O)[nH]2)cc(OC)c1	>55 µM
C[C@H](NC(=O)COc1ccc2ccccc2c1)C(=O)NN	46 µg/mL
O=C(NC(=S)Nc1ccc(Br)cn1)c1ccccc1[N+](=O)[O-]	>100 µM
CCc1c(Sc2ccc3ccccc3c2NC(C)=O)n(COCc2ccccc2)c(=O)[nH]c1=O	155 µM
Cc1ccc(Sc2c(C(C)C)c(CO)cn2Cc2ccncc2)cc1	>200 µM
Cc1cn([C@H]2C[C@H](N=[N+]=[N-])[C@@H](COP(=O)(OC(C)C)C(N)=O)O2)c(=O)[nH]c1=O	240.2 µM
O=c1[nH]c2cc(NS(=O)(=O)c3ccc(-c4ccccc4)cc3)ccc2c(=O)n1O	305.3 µM
CC(C)c1c(CO)cn(Cc2ccncc2)c1Sc1cc(F)cc(F)c1	60 µM
CCc1nc2sccn2c1C(=O)c1ccc(O)cc1	42 µM
NC(=O)c1[nH]c2ccc(Cl)cc2c1S(=O)(=O)c1ccccc1	>20 µM
c1cc(CN2CCCNCCNCCCNCC2)ccc1CNCCCN1CCOCC1	>25 µg/mL
Cc1cn([C@H]2C[C@H](N=[N+]=[N-])[C@@H](CO)O2)c(=O)[nH]c1=O	>1 µM
c1cc2cc(NCCCNC3=NCCCN3)ccc2[nH]1	167 µM
CCc1nc2ccccn2c1C(=O)c1ccco1	280 µM
NC1=Nc2c(ncn2CCC/C=C/P(=O)(O)O)C(=O)C1	138 µM
COC(O)c1cc(O)c(O)c(O)c1	25.15 µM
CC(C)c1s/c(=N\S(=O)(=O)c2cc(C#N)ccc2C#N)n(C)c1Cl	22 µM
Cc1c(Cc2c(Cl)cccc2Cl)nc(SCc2ccccc2)[nH]c1=O	>64 µM
N#Cc1ccc(Nc2nccc(C(O)c3ccc4ccccc4c3)n2)cc1	35.5 µM
COC(=O)[C@@H](NC(=O)COc1ccc2ccccc2c1)C(C)C	42 µg/mL
CCc1nc2sccn2c1C(=O)c1ccccc1	223 µM
CCOC(=O)c1cn(Cc2ccncc2)c(Sc2ccc(C)cc2)c1C(C)C	60 µM
Cc1c(C(C)(C)C)s/c(=N\S(=O)(=O)c2cc(Cl)ccc2O)n1C	>25 µM
C[C@@]12OC(=O)C[C@@H]1[C@H]1Oc3c(c(O)cc(O)c3[C@@H]3c4ccc(O)cc4O[C@H](c4ccc(O)cc4)[C@H]3O)C[C@H]1O2	>333 µM
COC(=O)[C@H](CO)NC(=O)[C@H](CCSC)NC(=O)COc1ccc2ccccc2c1	>100 µg/mL
O=c1[nH]c(=O)n(COCCO)c2c1Nc1ccccc1S2	276 µg/mL
COCCNc1cc(Oc2c(C)cc(/C=C/C#N)cc2C)nc(Nc2ccc(C#N)cc2)n1	3.05 µM
COc1c(N2CCN(CC(=O)OC[C@@H]3CC[C@H](n4cnc5c(=O)[nH]cnc54)O3)CC2)c(F)cc2c(=O)c(C(=O)O)cn(C3CC3)c12	770 µM
CN=C(N)NCCNc1ccc2[nH]ccc2c1	≥277 µM
COC(=O)[C@H](C)NC(=O)COc1ccc2ccccc2c1	59 µg/mL
Cc1cn([C@H]2C[C@H](N=[N+]=[N-])[C@@H](CO)O2)c(=O)[nH]c1=O	7.485 µM
CCCCCCCCCCCC(=O)O[C@@]12C[C@@H](C)[C@]34C=C(C)[C@H](O)[C@@]3(O)[C@H](O)C(COC(=O)OC)=C[C@H](C4=O)[C@@H]1C2(C)C	3.2 µg/mL
O=C(CN1CCN(c2ccccc2)CC1)OC[C@@H]1CC[C@H](n2cnc3c(=O)[nH]cnc32)O1	>1000 µM
CCc1c(Sc2cccc3ccccc23)nc(SCC(=O)c2ccc(Cl)cc2)[nH]c1=O	22.44 µM
CC(=O)[C@]12CCC(C)(C)C=C1C1=CCC3[C@@]4(C)CCC(=O)C(C)(C)C4[C@H](O)C[C@@]3(C)[C@]1(C)CC2	36.37 µM
Cc1c(Cc2ccc(F)cc2)nc(SCc2ccc([N+](=O)[O-])cc2)[nH]c1=O	>65 µM
CCc1c(Sc2cccc3ccccc23)n(COC)c(=O)[nH]c1=O	38.78 µM
O=c1c2ccccc2[se]n1-c1ccccc1	>20 µg/mL
COc1cc(OC)cc(OC2O[C@H](CO)[C@@H](O)[C@H](O)[C@H]2O)c1	>200 µM
Cc1c(Cc2c(Cl)cccc2Cl)nc(SCc2cccc(Cl)c2)[nH]c1=O	>59 µM
C1CNCCNCCCNCCNC1.O=S(=O)([O-])[O-].[O]=[V+2]	>340 µM
N=C(CNC(=O)NCCCNc1ccc2[nH]ccc2c1)N[N+](=O)[O-]	>375 µM
CC(C)=CCC/C(C)=C/CC/C(C)=C/CC/C(C)=C/Cc1cc(O)cc2c1OC(=O)C2=C(C)C	26.08 µM
Cc1c(C(C)(C)C)s/c(=N\S(=O)(=O)c2ccccc2)n1C	>25 µM
Cc1cn([C@H]2C[C@H](N=[N+]=[N-])[C@@H](COP(=O)(OCC(C)(C)C)C(N)=O)O2)c(=O)[nH]c1=O	69.8 µM
O=c1[nH]cnc2c1ncn2[C@H]1CC[C@@H](CO)O1	>1000 µM
CC(=O)[C@]12CCC(C)(C)C=C1C1=CCC3[C@@]4(C)CCC(=O)C(C)(C)C4CC[C@@]3(C)[C@]1(C)CC2	41.19 µM
Cc1cn([C@H]2C[C@H](N=[N+]=[N-])[C@@H](CO)O2)c(=O)[nH]c1=O	>1 µg/mL
COc1ccc(CN(CCN2CCCCC2)CC2CCCN(C3CCCC3)C2)cc1O	96 µM
Cc1c(C(C)(C)C)s/c(=N\S(=O)(=O)c2cccc(Cl)c2O)n1C	>25 µM
CC(C)c1c(COC(N)=O)cn(Cc2ccncc2)c1Sc1cccc(Cl)c1	>200 µM
CCc1c(Sc2ccc3ccccc3c2)n(COCc2ccccc2)c(=O)[nH]c1=O	154.5 µM
Cc1c(Cc2c(F)cccc2F)nc(NC2CCCCC2)[nH]c1=O	30 µM
CCCCCCCCCCCC(=O)O[C@@]12C[C@@H](C)[C@]34C=C(C)[C@H](OC(=O)c5ccccc5)[C@@]3(O)[C@H](O)C(CO)=C[C@H](C4=O)[C@@H]1C2(C)C	4.51 µg/mL
CC(C)c1c(CO)cn(Cc2ccc(N)cc2)c1Sc1cc(Cl)cc(Cl)c1	>200 µM
CCc1nc2ncccn2c1C(=O)c1ccco1	>100 µM

A second listing of 11 rows from above:

compound	result
NC1=Nc2c(ncn2CCC/C=C/P(=O)(O)O)C(=O)C1	138 µM
CCc1c(Sc2cccc3ccccc23)nc(SCC(=O)c2ccc(F)cc2)[nH]c1=O	26.04 µM
CCc1nc(SC)n(COCc2ccccc2)c1Cc1ccccc1	34 µM
CC(C)c1c(CO)cn(Cc2ccccn2)c1Sc1cc(Cl)cc(Cl)c1	120 µM
O=C(NC(=S)Nc1ccc(Br)cn1)c1ccccc1[N+](=O)[O-]	>100 µM
CCCCCCCCCCCC(=O)O[C@@]12C[C@@H](C)[C@]34C=C(C)[C@H](OC(=O)c5ccccc5)[C@@]3(O)[C@H](O)C(CO)=C[C@H](C4=O)[C@@H]1C2(C)C	4.51 µg/mL
Cc1cn([C@H]2C[C@H](N=[N+]=[N-])[C@@H](CO)O2)c(=O)[nH]c1=O	>93.55 µM
Cc1c(C(C)(C)C)s/c(=N\S(=O)(=O)c2cc(Cl)ccc2O)n1C	>25 µM
O=c1[nH]c2cc(NS(=O)(=O)c3ccc(-c4ccccc4)cc3)ccc2c(=O)n1O	305.3 µM
COC(O)c1cc(O)c(O)c(O)c1	25.15 µM
CN=C(N)NCCNc1ccc2[nH]ccc2c1	≥277 µM